This is an account of results in PMC12477077, “Polyclonal antibodies towards abrin and ricin—design and potential application for mass spectrometry-based analysis of human biosamples” (2025).

Each structure is given as a SMILES string.

Data set [1] can be described thus: Processed sample stability (extracts in autosampler). As to conditions: extracts (aqueous glycine buffer eluate) of 5 ng/mL spiked plasma, silanized vials in autosampler, 24 h at 20 °C; LC-Orbitrap MS; mean (CV), n = 3.
Data set [2] is described as follows: Stability of peptides in spiked plasma (short-term, benchtop, freeze/thaw, long-term). As to conditions: for Benchtop stability (24 h, 22 °C), peak area deviation t0 compared to t1 (CV, %): 24 h at 22 °C; for Freeze/thaw stability (24 h, −20 °C), peak area deviation t0 compared to t1 (CV, %): one freeze and thaw cycle, 24 h at −20 °C.
Setting [3] is: human pooled blank EDTA plasma spiked 5 ng/mL, protein LoBind tubes, LC-Orbitrap MS, mean (CV), n = 3.
[4] abbreviates: plasma spiked 5 ng/mL, proteases inhibitor coated tubes (BD P100, K2EDTA), LC-Orbitrap MS, mean (CV), n = 3, italic values.

On to `CC[C@H](C)[C@H](NC(=O)[C@H](CCCCN)NC(=O)[C@H](CO)NC(=O)[C@H](CCCCN)NC(=O)[C@H](CCC(=O)O)NC(=O)[C@@H](NC(=O)[C@@H](NC(=O)[C@H](CO)NC(=O)[C@H](CCCNC(=N)N)NC(=O)[C@@H](NC(=O)[C@H](CC(C)C)NC(=O)[C@H](CC(C)C)NC(=O)[C@@H]1CCCN1C(=O)[C@H](CO)NC(=O)[C@H](CCC(N)=O)NC(=O)[C@H](CC(N)=O)NC(=O)[C@H](C)NC(=O)[C@H](CC(N)=O)NC(=O)[C@@H]1CCCN1C(=O)[C@@H]1CCCN1C(=O)[C@H](CC(N)=O)NC(=O)[C@@H](N)CS)[C@@H](C)CC)[C@@H](C)CC)C(C)C)C(=O)O`, for which the “Processed sample stability (24 h, 20 °C), peak area deviation t0 compared to t1 (CV, %)” value in data set [1] is listed as 101 (4.4) %. Moreover, the “Short-term stability (7 h, 4 °C), peak area deviation t0 compared to t1 (CV, %)” value in data set [2] (blank plasma spiked 5 ng/mL, protein LoBind tubes, 7 h at 4 °C, LC-Orbitrap MS, mean (CV), n = 3) was 66 (15) %. Also, in data set [2] (blank plasma spiked 5 ng/mL, protein LoBind tubes, 7 h at 22 °C, LC-Orbitrap MS, mean (CV), n = 3), the “Benchtop stability (7 h, 22 °C), peak area deviation t0 compared to t1 (CV, %)” value was 43 (33) %. Further, the “Freeze/thaw stability (7 h, -20 °C), peak area deviation t0 compared to t1 (CV, %)” value in data set [2] (blank plasma spiked 5 ng/mL, protein LoBind tubes, 7 h at -20 °C, LC-Orbitrap MS, mean (CV), n = 3) was 104 (5.9) %. Further, the “Long-term stability (three weeks, -20 °C), peak area deviation t0 compared to t1 (CV, %)” value in data set [2] (blank plasma spiked 5 ng/mL, protein LoBind tubes, three weeks at -20 °C, LC-Orbitrap MS, mean (CV), n = 3) is given as 69 (12) %. Moreover, the results for the “Benchtop stability (24 h, 22 °C), peak area deviation t0 compared to t1 (CV, %)” value in data set [2] (setting [3]) and in data set [2] (setting [4]) were 27 (7.3) % and 20 (23) %, respectively. The “Freeze/thaw stability (24 h, −20 °C), peak area deviation t0 compared to t1 (CV, %)” value in data set [2] (setting [3]) is listed as 82 (4.1) %; in data set [2] (setting [4]), 105 (19) %. Also, the “Short-term stability (24 h, 4 °C), peak area deviation t0 compared to t1 (CV, %)” value in data set [2] (plasma spiked 5 ng/mL, proteases inhibitor coated tubes (BD P100, K2EDTA), 24 h at 4 °C, LC-Orbitrap MS, mean (CV), n = 3, italic values) is 52 (12) %. For the same compound, in data set [2] (plasma, proteases inhibitor coated tubes (BD P100), −20 °C, 5 ng/mL), the “Time plasma containing the peptide can be stored at −20 °C” value was “at least 24 h”.
